Results of unrelated studies side by side (data: NIAID ChemDB).

Common to all: tests in culture; species: Herpes simplex virus 1; method: plaque count; read-out: EC50

An empty or dashed field is not shown. ECn: concentration that inhibits the pathogen or its effect by n%. Conditions beyond the fields shown may differ between rows. Two numbers with a dash give a range or band.

compound | strain or isolate | cell line | value
COC(=O)CC1(O)C(O[Si](C)(C)C(C)(C)C)[C@H](n2ccc(=O)[nH]c2=O)O[C@@H]1CO[Si](C)(C)C(C)(C)C | - | VERO | >3.2 µM
Nc1ccn(C[C@@H](CO)OCP(=O)(O)O)c(=O)n1 | SC16 (TK+) | MRC-5 | 9.3 µM
Nc1nc2c(ncn2CCC(CO)CO)c(=O)[nH]1 | - | - | 0.1–1 µM
CC[C@@H](C(C)C)[C@@H](O)[C@H](O)[C@@H](C)[C@H]1CC[C@H]2[C@@H]3CC(=O)[C@H]4C[C@@H](OC(C)=O)CC[C@]4(C)[C@H]3CC[C@]12C | F | VERO | 22.4 µM
CCCc1nc2n(n1)C(c1ccc(OC)cc1)CC(=O)N2 | 7401H | VERO | >50 µg/mL
N#Cc1c(SCCCSc2nsc(-c3ccccc3)c2C#N)nsc1-c1ccccc1 | - | VERO | >4.76 µg/mL
Nc1ncnc2c1ncn2[C@@H]1O[C@H](CO)[C@@H](O)[C@@H]1O | P | HFF | 44 µg/mL
COc1ncc(C#C[Si](C)(C)C)c(OC)n1 | - | VERO | >100 µM
Nc1nc2c(ncn2CC(CO)CCO)c(=O)[nH]1 | C42 | BHK | 1.4 µM
[O-][n+]1onc2ncnc(N3CC[N+]4(CC3)CC[N+]3(CCN(c5ncnc6no[n+]([O-])c56)CC3)CC4)c21 | KUPKA | GMK | 8.1 µM
CC(=O)OCCOCn1cnc2c(=O)oc(N)nc21 | - | VERO | 420 µM
Nc1ncnc2c1ncn2[C@@H]1C[C@H](CO)[C@@H](O)[C@@H]1O | H129 | VERO | 8.75 µg/mL
CC(C)(C)[Si](C)(C)OC[C@H]1O[C@@H](n2ccc(=O)[nH]c2=O)[C@H](O[Si](C)(C)C(C)(C)C)[C@@]12O[C@H]2C(=O)NN | - | VERO | 33 µM
CCCc1nc2n(n1)C(c1ccc([N+](=O)[O-])cc1)CC(=O)N2 | 7401H | VERO | >50 µg/mL
CCOS(=O)c1nsc(-c2ccc(OCc3ccccc3)cc2)c1C#N | - | VERO | >3.96 µg/mL
CCC(=O)OCCOCn1cnc2c(=O)oc(N)nc21 | - | VERO | 400 µM
Cn1cc(C(=O)NCc2ccc(Cl)cc2)c(=O)c2cc(CN3CCOCC3)ccc21 | L6183347 ACV resistant | HFF | 9.1 µM
CC(=O)OCCOCn1c(-c2ccccc2)c(Br)c(Br)c1-c1ccccc1 | - | VERO | >23 µM
Nc1nc2c(ncn2C[C@]2(CO)C[C@H]2CO)c(=O)[nH]1 | - | - | 0.01–0.1 µM
Nc1c(-c2ccccc2)c(-c2ccccc2)n(COCCO)c1-c1ccccc1 | - | VERO | >42 µM
O=C1CC(c2ccc([N+](=O)[O-])cc2)n2nc(-c3ccncc3)nc2N1 | 7401H | VERO | >50 µg/mL
Nc1nc2c(ncn2CC2CSC(P(=O)(O)O)O2)c(=O)[nH]1 | KOS | VERO | 8 µg/mL
CCCc1nc2n(n1)C(c1ccccc1)CC(=O)N2 | 7401H | VERO | >50 µg/mL
Nc1nc2c(ncn2CC[C@@H](O)CO)c(=O)[nH]1 | C42 | HEL | 1 µM
CCOC(=O)c1c(Cl)c(-c2ccccc2)n(COCCO)c1C | - | VERO | 103 µM
Cc1cn([C@H]2C[C@@H](N=[N+]=[N-])[C@@H](CO)O2)c(=O)[nH]c1=O | KOS | - | >100 µM
O=c1[nH]c(=O)n([C@H]2C[C@H](O)[C@@H](CO)O2)cc1/C=C/Br | 511 | 3T6 | 0.05 µg/mL
O=C(NCc1ccc(Cl)cc1)c1c[nH]c2ccc(C#CCO)cc2c1=O | MAC | - | 18 µM
O=C(NCc1ccc(Cl)cc1)c1cn2c3c(cc(CN4CCOCC4)cc3c1=O)OC(c1cccnc1)C2 | B-2006 (acyclovir-resistant) | HFF | 12 µM
CCOP(=O)(OCC)C1=NOC(n2cc(F)c(=O)[nH]c2=O)C1 | - | VERO | >100 µM
C#Cc1cnc(C(=O)c2ccccc2)nc1C(=O)c1ccccc1 | - | VERO | >100 µM
O=c1[nH]c(=O)n([C@H]2C[C@H](O)[C@@H](COP3(=O)OCc4c(ccc5ccccc45)O3)O2)cc1/C=C/Br | KUPKA (TK+) | VERO | 0.15 µg/mL
Cc1cc(C)c(OC(=O)c2ccc(Cl)cc2)c(=O)c(C)c1 | Clinical isolate | VERO | 1.09 µM
O=C(NCc1ccc(Cl)cc1)c1c[nH]c2ccc(C#CCO)cc2c1=O | - | - | 7.4 µM
COc1ccc(C2CC(=O)Nc3nc(-c4cccnc4)nn32)cc1 | 7401H | VERO | >50 µg/mL
O=c1[nH]c(=O)n([C@H]2C[C@H](O)[C@@H](COP3(=O)OCc4cccc(-c5ccccc5)c4O3)O2)cc1/C=C/Br | KUPKA (TK+) | VERO | 0.26 µg/mL
Nc1nc2c(ncn2C[C@H]2CC[C@@H](P(=O)(O)O)O2)c(=O)[nH]1 | KOS | VERO | 44 µg/mL
CCOC(=O)CC1OP(=O)(OC[C@H]2O[C@@H](n3cc(/C=C/Br)c(=O)[nH]c3=O)C[C@@H]2O)Oc2cccc(Cl)c21 | KUPKA (TK+) | VERO | 0.19 µg/mL
Nc1nc2c(ncn2COCCOC(CO)CO)c(=O)[nH]1 | F | VERO | 7 µM
CCOC(=O)c1ccc(OCCC2CCN(c3ccc(C)nn3)CC2)cc1 | - | VERO | >7 µg/mL
CCN(CC)CCCOc1c2ccoc2cc2oc(=O)ccc12 | Clinical isolate | VERO | 3.5 µg/mL
N#Cc1c(-c2ccccc2)s[nH]c1=S | - | VERO | >13 µg/mL
O=c1c2cccc(Cl)c2[nH]c2cc3ccccc3c(O)c12 | KOS | VERO | >100 µM
CCOP(=O)(OCC)C1=NOC(n2cc(C)c(=O)[nH]c2=O)C1 | - | VERO | >400 µM
CCCCCc1nc2n(n1)C(c1ccc([N+](=O)[O-])cc1)CC(=O)N2 | 7401H | VERO | >50 µg/mL
CCOC(=O)CC1(O)[C@@H](CO[Si](C)(C)C(C)(C)C)O[C@@H](n2ccc(=O)[nH]c2=O)[C@@H]1O[Si](C)(C)C(C)(C)C | - | VERO | >3.4 µM
O=c1[nH]c(=O)n([C@H]2C[C@H](O)[C@@H](CO[P@]3(=O)OCc4cccc(-c5ccccc5)c4O3)O2)cc1/C=C/Br | B2006 (TK-) | VERO | >128 µg/mL
Nc1ccn(C[C@@H](CO)OCP(=O)(O)O)c(=O)n1 | KOS | HEL | 1.2 µM
COc1ncc(I)c(OC)n1 | - | VERO | >100 µM
Nc1nc2c(ncn2COC(CO)CO)c(=O)[nH]1 | KOS | VERO | 0.55 µg/mL
Cc1cc(C2CCCCC2)n(O)c(=O)c1 | Clinical isolate | VERO | 0.27 µM
COc1ccc(C2CC(=O)Nc3nc(-c4ccc5ccccc5c4)nn32)cc1 | 7401H | VERO | >50 µg/mL
CC(=O)OCCOCn1c(-c2ccccc2)c(Br)c(-c2ccccc2)c1-c1ccccc1 | - | VERO | >16 µM
CSc1nsc(-c2ccc(OCc3ccccc3)cc2)c1C#N | - | VERO | >16.92 µg/mL
O=C(NCc1ccc(Cl)cc1)c1c[nH]c2c(F)cccc2c1=O | - | - | 9.1 µM
Nc1nc2c(ncn2[C@@H]2C[C@H](CO)[C@H]2CO)c(=O)[nH]1 | - | - | 0.01–0.1 µM
CO[C@H]1C[C@H](n2cc(/C=C/Br)c(=O)[nH]c2=O)O[C@@H]1COP1(=O)OCc2cccc(C)c2O1 | KUPKA (TK+) | VERO | 16.7 µg/mL
Nc1ncnc2c1ncn2C[C@@H](CO)OCP(=O)(O)O | KOS phosphonoformic acid-resistant | WI-38 | <1.6 µM
Nc1nc2c(ncn2COCCO)c(=O)[nH]1 | McKrae | VERO | 0.6 µM
CC[C@@H](C(C)C)[C@@H](O)[C@H](O)[C@@H](C)[C@H]1CC[C@H]2[C@@H]3CC(=O)[C@@]4(O)C[C@@H](OC(C)=O)CC[C@]4(C)[C@H]3CC[C@]12C | F | VERO | 57.6 µM
CC(=O)NC(CCc1ccc(Cl)c(Cl)c1)c1cccc(O)c(=O)c1 | Clinical isolate | VERO | 0.42 µM
CCOC(=O)c1c([N+](=O)[O-])c(-c2ccccc2)n(COCCOC(C)=O)c1C | - | VERO | >169 µM
CCCCCc1nc2n(n1)C(c1ccccc1)CC(=O)N2 | 7401H | VERO | <50 µg/mL
CC[C@H](/C=C/[C@@H](C)[C@H]1CC[C@H]2[C@@H]3CC=C4C[C@@H](O)CC[C@]4(C)[C@H]3CC[C@]12C)C(C)C | F | VERO | 48.8 µM